Anti-infective test results gathered from many reports (values: NIAID ChemDB through PubChem).

All rows: tests in culture; agent: Aspergillus fumigatus

A number after MIC or MFC names an inhibition level or a share of isolates. An empty or dashed field is not shown. Inhibition is in % at the dose shown (toxicity tests: loss of growth or viability). ECn is the concentration giving n% inhibition of infection, replication or growth. Conditions beyond the fields shown may differ between rows.

structure | strain | mutations | method | measure | tested at | result
Fc1ccc(-c2n[nH]c(COc3nc(C(F)(F)F)nc4ccccc34)n2)cc1 | MTCC 25 |  |  | MIC100 |  | 25 µg/mL
O/N=C/c1cc[n+](Cc2ccc(C[n+]3ccc(/C=N/O)cc3)s2)cc1.[Cl-].[Cl-] |  |  | broth dilution | EC50 |  | >20 µg/mL
C[C@@H](c1ncncc1F)[C@](O)(Cn1cncn1)c1ccc(F)cc1F |  |  |  | MIC90 |  | 0.2 µg/mL
C[C@@H](c1ncncc1F)[C@](O)(Cn1cncn1)c1ccc(F)cc1F | 150 clinical isolates |  |  | MIC90 |  | 0.5 µg/mL
Cc1onc(-c2ccc(OCc3ccccc3)cc2)c1C=O | Clinical isolates |  |  | EC50 |  | >50 µg/mL
C[C@H]1[C@H](O)[C@@H](C)/C=C/C=C/C=C/C=C/C=C/C=C/C=C/[C@H](O[C@@H]2O[C@H](C)[C@@H](O)[C@H](N)[C@@H]2O)C[C@@H]2O[C@](O)(C[C@@H](O)C[C@@H](O)CC[C@H](O)[C@@H](O)C[C@@H](O)CC(=O)O[C@H]1C)C[C@H](O)[C@H]2C(=O)O | 94 isolates |  |  | Geometric mean MFC |  | 1.76 µg/mL
COc1ccc(C(=O)Cn2ccnc2)cc1 |  |  | broth dilution | inhibition | 100 µg/mL | 72%
C[C@@H]([C@H](N)C(=O)N[C@H](C(=O)O)[C@H]1O[C@@H](n2ccc(=O)[nH]c2=O)[C@H](O)[C@@H]1O)[C@H](O)c1ccc(O)cn1 | 10AF |  |  | MFC |  | 800 µg/mL
CCN1CCC(O)(/C=C/c2ccc(Cl)cc2)C(C(=O)/C=C/c2ccc(Cl)cc2)C1 | 20 strains |  |  | MIC90 |  | 11.68 µg/mL
Cc1nnc(NS(=O)(=O)c2ccc(N)cc2)s1 | IFM 48051 |  |  | MIC |  | ≥256 µg/mL
O=Cc1cc(-c2ccccc2Cl)on1 | Clinical isolates |  |  | EC50 |  | 47.62 µg/mL
COC(/C=C/c1ccco1)=C1/C(=O)C=C(C)C1=O | ATCC 90906 |  |  | MFC |  | >20 µg/mL
CC(=O)N1CCN(c2ccc(OC[C@H]3CO[C@](Cn4ccnc4)(c4ccc(Cl)cc4Cl)O3)cc2)CC1 | ATCC 9142 |  | broth dilution | MFC |  | 500 µg/mL
COc1ccc(-c2n[nH]c(COc3ncnc4ccccc34)n2)cc1 | MTCC 343 |  |  | MIC100 |  | 25 µg/mL
COc1ccc(C(O)Cn2ccnc2)cc1 |  |  | broth dilution | inhibition | 80 µg/mL | 47%
N#CC1C(c2cc3ccccc3nc2Cl)C2=C(CCCC2=O)N(c2cccnc2)C1N | MTCC 3008 |  | broth dilution | MIC99 |  | >1000 µg/mL
O/N=C/c1ccc[n+](Cc2ccc(C[n+]3cccc(/C=N/O)c3)s2)c1.[Cl-].[Cl-] |  |  | broth dilution | EC50 |  | >20 µg/mL
O=c1cc(CO)occ1O |  | mpkC deletion | agar | MIC99 |  | >12800 µM
Cc1ccc(-c2n[nH]c(COc3nc(C(F)(F)F)nc4ccccc34)n2)cc1 | MTCC 343 |  |  | MIC100 |  | 50 µg/mL
C[C@@H]1CCC2(OC1)OC1CC3C4C[C@H](O)[C@H]5C[C@@H](O)CC[C@]5(C)C4CC(=O)[C@]3(C)C1[C@@H]2C | ATCC 90906 |  |  | MFC |  | 20 µg/mL
COc1cc(NS(=O)(=O)c2ccc(N)cc2)nc(OC)n1 | IFM 51126 |  |  | MIC |  | 128 µg/mL
CCCCCOc1ccc(-c2ccc(-c3ccc(C(=O)N[C@H]4C[C@@H](O)[C@@H](O)NC(=O)[C@@H]5[C@@H](O)[C@@H](C)CN5C(=O)[C@H]([C@H](C)O)NC(=O)[C@H]([C@H](O)[C@@H](O)c5ccc(O)cc5)NC(=O)[C@@H]5C[C@@H](O)CN5C(=O)[C@H]([C@H](C)O)NC4=O)cc3)cc2)cc1 | Isolate AF65 |  |  | MEC |  | 0.003 µg/mL
C[C@H]1[C@H](O)[C@@H](C)/C=C/C=C/C=C/C=C/C=C/C=C/C=C/[C@H](O[C@@H]2O[C@H](C)[C@@H](O)[C@H](N)[C@@H]2O)C[C@@H]2O[C@](O)(C[C@@H](O)C[C@@H](O)CC[C@H](O)[C@@H](O)C[C@@H](O)CC(=O)O[C@H]1C)C[C@H](O)[C@H]2C(=O)O | 29 isolates |  |  | MIC90 |  | 1 µg/mL
FC(F)(F)c1nc(OCc2nc(-c3ccccc3)n[nH]2)c2ccccc2n1 | MTCC 343 |  |  | MIC100 |  | 25 µg/mL
CC1=CC[C@@H]2[C@H](C1)C2(C)C | F17 |  |  | MLC |  | 0.64 µg/mL
COc1cc(NS(=O)(=O)c2ccc(N)cc2)ncn1 | IFM 48051 |  |  | MIC |  | 64 µg/mL
O=C(Cn1cncn1)c1ccc([N+](=O)[O-])cc1 |  |  | broth dilution | inhibition | 100 µg/mL | 93%
COC(=O)C1C(c2cc3ccccc3nc2Cl)C2=C(CCCC2=O)N(c2cccnc2)C1N | MTCC 3008 |  | broth dilution | MIC99 |  | 1000 µg/mL
CCC(C)n1ncn(-c2ccc(N3CCN(c4ccc(OC[C@H]5CO[C@](Cn6cncn6)(c6ccc(Cl)cc6Cl)O5)cc4)CC3)cc2)c1=O | 35 isolates |  |  | Geometric mean MFC |  | 10.55 µg/mL
COc1ccc2nc(Cl)c(C3C4=C(CCCC4=O)N(c4cccnc4)C(N)C3C#N)cc2c1 | MTCC 3008 |  | broth dilution | MIC99 |  | >1000 µg/mL
C[C@H]1[C@H](O)[C@@H](C)/C=C/C=C/C=C/C=C/C=C/C=C/C=C/[C@H](O[C@@H]2O[C@H](C)[C@@H](O)[C@H](N)[C@@H]2O)C[C@@H]2O[C@](O)(C[C@@H](O)C[C@@H](O)CC[C@H](O)[C@@H](O)C[C@@H](O)CC(=O)O[C@H]1C)C[C@H](O)[C@H]2C(=O)O | 50 strains |  |  | Mean MIC |  | 0.63 µg/mL
CC(C)CC(O)C(=O)O | MRCM 32221 |  | broth dilution / visual reading | MFC100 |  | 36000 µg/mL
C[C@H]1[C@H](O)[C@@H](C)/C=C/C=C/C=C/C=C/C=C/C=C/C=C/[C@H](O[C@@H]2O[C@H](C)[C@@H](O)[C@H](N)[C@@H]2O)C[C@@H]2O[C@](O)(C[C@@H](O)C[C@@H](O)CC[C@H](O)[C@@H](O)C[C@@H](O)CC(=O)O[C@H]1C)C[C@H](O)[C@H]2C(=O)O | 35 isolates |  |  | MFC90 |  | 16 µg/mL
Cc1cc(NS(=O)(=O)c2ccc(N)cc2)nc(C)n1 | IFM 41362 |  |  | MIC |  | ≥256 µg/mL
NC(=O)c1cc[n+](CCC[n+]2cccc(/C=N/O)c2)cc1.[Br-].[Br-] |  |  | broth dilution | EC50 |  | >20 µg/mL
O=Cc1cc(-c2c(Cl)cccc2Cl)no1 | Clinical isolates |  |  | EC50 |  | >50 µg/mL
CCC(C)n1ncn(-c2ccc(N3CCN(c4ccc(OC[C@H]5CO[C@](Cn6cncn6)(c6ccc(Cl)cc6Cl)O5)cc4)CC3)cc2)c1=O | 25 isolates |  |  | MIC50 |  | 1 µg/mL
Cc1nc(OCc2nc(-c3ccc(O)cc3)n[nH]2)c2ccccc2n1 | MTCC 343 |  |  | MIC100 |  | 50 µg/mL
Cc1ccc(C(C)C)cc1 | ATCC 46645 |  |  | MLC |  | >20 µg/mL
C[C@H]1[C@H](O)[C@@H](C)/C=C/C=C/C=C/C=C/C=C/C=C/C=C/[C@H](O[C@@H]2O[C@H](C)[C@@H](O)[C@H](N)[C@@H]2O)C[C@@H]2O[C@](O)(C[C@@H](O)C[C@@H](O)CC[C@H](O)[C@@H](O)C[C@@H](O)CC(=O)O[C@H]1C)C[C@H](O)[C@H]2C(=O)O | 25 isolates |  |  | MIC50 |  | 4 µg/mL
O/N=C/c1cc[n+](Cc2cc(C[n+]3ccc(/C=N/O)cc3)on2)cc1.[Br-].[Br-] |  |  | broth dilution | EC50 |  | >20 µg/mL
CC(=O)N1CCN(c2ccc(OC[C@H]3CO[C@](Cn4ccnc4)(c4ccc(Cl)cc4Cl)O3)cc2)CC1 | 25 isolates |  |  | MIC50 |  | 4 µg/mL
CCC(C)n1ncn(-c2ccc(N3CCN(c4ccc(OC[C@H]5CO[C@](Cn6cncn6)(c6ccc(Cl)cc6Cl)O5)cc4)CC3)cc2)c1=O |  |  |  | MLC90 |  | 2 µg/mL
CCC(C)n1ncn(-c2ccc(N3CCN(c4ccc(OC[C@H]5CO[C@](Cn6cncn6)(c6ccc(Cl)cc6Cl)O5)cc4)CC3)cc2)c1=O | AF293 | mpkC | broth dilution | inhibition | 16 µg/mL | 99.83%
C[C@@H](c1ncncc1F)[C@](O)(Cn1cncn1)c1ccc(F)cc1F | 35 isolates |  |  | MIC90 |  | 0.5 µg/mL
Cc1onc(-c2cccc(Cl)c2)c1C=O | Clinical isolates |  |  | EC50 |  | 7.29 µg/mL
CCOC(=O)C1C(c2cc3cc(C)ccc3nc2Cl)C2=C(CCCC2=O)N(c2cccnc2)C1N | MTCC 3008 |  | broth dilution | MIC99 |  | 500 µg/mL

Repeating the first 4 entries:

structure | strain | mutations | method | measure | tested at | result
Fc1ccc(-c2n[nH]c(COc3nc(C(F)(F)F)nc4ccccc34)n2)cc1 | MTCC 25 |  |  | MIC100 |  | 25 µg/mL
O/N=C/c1cc[n+](Cc2ccc(C[n+]3ccc(/C=N/O)cc3)s2)cc1.[Cl-].[Cl-] |  |  | broth dilution | EC50 |  | >20 µg/mL
C[C@@H](c1ncncc1F)[C@](O)(Cn1cncn1)c1ccc(F)cc1F |  |  |  | MIC90 |  | 0.2 µg/mL
C[C@@H](c1ncncc1F)[C@](O)(Cn1cncn1)c1ccc(F)cc1F | 150 clinical isolates |  |  | MIC90 |  | 0.5 µg/mL